The text below walks through data of publication PMC9734383 (2022).

Assay [1] has as its target H16 HA (recombinant HA of the panel) (influenza A virus (strain  in …)). The assay is described as follows: BLI.
The target of assay [2] is T1, H13 HA (recombinant HA of the panel) (influenza A virus (strain  in …)).
T1 chain: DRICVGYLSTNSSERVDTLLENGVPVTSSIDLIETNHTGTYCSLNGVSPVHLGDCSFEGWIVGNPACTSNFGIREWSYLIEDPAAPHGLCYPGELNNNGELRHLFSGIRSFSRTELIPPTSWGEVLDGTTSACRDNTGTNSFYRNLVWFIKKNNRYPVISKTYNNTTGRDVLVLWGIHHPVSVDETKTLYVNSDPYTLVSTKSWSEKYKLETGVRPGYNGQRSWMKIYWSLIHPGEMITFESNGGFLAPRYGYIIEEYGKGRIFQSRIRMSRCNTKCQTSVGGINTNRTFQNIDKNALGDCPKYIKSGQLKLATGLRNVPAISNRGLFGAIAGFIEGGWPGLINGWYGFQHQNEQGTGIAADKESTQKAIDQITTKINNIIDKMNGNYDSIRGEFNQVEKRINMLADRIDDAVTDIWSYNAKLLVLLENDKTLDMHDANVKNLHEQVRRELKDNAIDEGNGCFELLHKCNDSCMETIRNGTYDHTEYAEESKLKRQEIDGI
The assay is described as follows: BLI. For orientation: BLI is a label-free optical method that tracks binding on a fibre tip over time.

B1: PN-SIA28 Fab (Fab, V domains shown)
VH: QVQLVESGGGVVQPGRSLRLSCAASGFPFSSYGMHWVRQAPGKGLEWVAGVSYDGSYKYYADSVKGRFTISRDSSKSTLYLQMNSLRPEDTAVYYCARPSAIFGIYIILNGLDVWGQGTTVTVSS
VL: EIVLTQSPSSVSASVGDRVTITCRATQGISSWLAWYQQKPGKPPKLLIFGASSLQSGVPSRFSGSGSGTDFTLTISSLQPEDFATYFCQQAHSFPLTFGGGTKVEIK
modifications: biotinylated (in the BLI assay)
With B1, the figures for the Kd in assay [1] and in assay [2] were 8.83 µM and 2.54 µM, respectively.

By Kd is commonly meant the constant that tells how readily two partners part at equilibrium.
